Laboratory results as given in patent US20040214900A1, “Method of treating strongyloides infections and medicaments therefor” (priority 2003, published 2004).

How the values were obtained:
[1] = system: Strongyloides stercoralis infective larvae; assay: Immobilisation of S. stercoralis infective larvae incubated in 0.6% AI suspensions; assay type: cell-based
Procedure: (§1) Coproculture of about 30 g of fresh, moistened canine faeces was conducted using granular charcoal (1:1 v:v) in sealed 10 cm diameter Petri dishes. Cultures were maintained at 26° C. under semi-lighted conditions. S. stercoralis filariform larvae typically migrated to the surface of the culture and eventually into water droplets that condensed on the inner surface of the lid. Larvae appearing within 2 days were mostly those accruing from the homogonic cycle and usually occurred in insufficient numbers for bioassay. After five to eight days had elapsed free-living adult worms had effected a 50-fold increase in the population density (heterogonic cycle).
The effectiveness of the tested compounds was evaluated by incubating larvae obtained as in Example 1 in suspensions containing 0.6% of Compound (1) as the active ingredient (AI). Incubation times were 1, 2, 3, 4, 5, 6, 24, 48, 72, and 96 hours. Three (3) replicates were run in each assay, using >>100 larvae per replicate.
The anthelmintic effectiveness of Compound (1) and of three commercial anthelmintics, namely albendazole, thiabendazole, and ivermectin, was evaluated, and the results are summarized in Table 1. Compound (1) immobilized 100% of the larvae within one hour's exposure. This was also true for ivermectin. However, similar concentrations of albendazole and thiabendazole immobilized 50% of the infective larvae only after 73.7 and 78.9 hours, respectively.

[2] = system: Strongyloides stercoralis infective larvae; assay type: cell-based; settings: 0.6% AI
Procedure: as §1
The lethality of the tested compounds was evaluated by incubating larvae obtained as in Example 1 in suspensions containing 0.6% of Compound (1) as the active ingredient (AI).
The mortality of the larvae was assessed by a dye exclusion test such as have been used successfully to indicate viability in parasitic platyhelminths. (See Halton & Arme (1971) Exp. Parasit. 30:54; Robinson & Arme (1985) Ann. Trop. Med. & Parasit. 79:17.) Similar testing was applied to S. stercoralis larvae. In these tests, use of
0.01% v/v eosin in LNSS (ELNSS) in an eosin-exclusion test indicated death of larvae in less than 10 minutes and had no effect on healthy individuals.

Compound | Regression equation (Y = a + bx), a (immobilisation) [1] | Regression equation (Y = a + bx), b (immobilisation) [1] | Regression equation (Y = a + bx), a (mortality) [2] | Regression equation (Y = a + bx), b (mortality) [2]
CCCSc1ccc2nc(NC(=O)OC)[nH]c2c1 [Albendazole, albendazole] | −5.09 | 2.74 | – | –
c1ccc2[nH]c(-c3cscn3)nc2c1 [Thiabendazole] | −12.02 | 6.27 | – | –
ivermectin | – | – | −7.35 | 2.94
